Test system: Pectobacterium carotovorum subsp. carotovorum SCC1 (Pcc)
Conditions: Arabidopsis thaliana; for induced resistance against Pcc (disease severity, statistical significance vs water-treated control): 50 μl of 0.1% amino acid to roots, Pcc 7 days later, severity 24 h and 48 h after pathogen

Row | Structure (SMILES) | induced resistance against Pcc (disease severity, statistical significance vs water-treated control) | persistence of disease resistance after Pcc pathogen treatment (0.1% amino acid, 48 hours after Pcc)
1 | CC[C@H](C)[C@H](N)C(=O)O [isoleucine] | induced the resistance against Pcc | –
2 | CC(C)C[C@H](N)C(=O)O [leucine] | induced the resistance against Pcc | –
3 | O=C(O)[C@@H]1CCCN1 [proline] | induced the resistance against Pcc | –
4 | CC(C)[C@H](N)C(=O)O [valine] | induced the resistance against Pcc | persisted even after 48 hours
